Measured values from several laboratories, pooled; numbers as filed in NIAID ChemDB.

All rows: tests on isolated targets; species: Human cytomegalovirus; target: Protease; read-out: IC50

ICn: concentration for n% inhibition. An empty or dashed field is not shown. Neighbouring rows are from separate reports.

smiles,strain or isolate,value
CC[C@@H](NC(=O)N1C(=O)C[C@@H]1CSc1ncccn1)c1ccccc1,,3.1 µM
O=C1C[C@H](Cc2nc3ccccc3s2)N1C(=O)NCc1ccc(C(F)(F)F)cc1,,2.7 µM
CC(C)NC(=O)N1C(=O)C[C@H]1Oc1ccc(C(=O)O)cc1,,>100 µM
COC(=O)[C@H](CC(=O)O)Nc1nc2ccc(NC(=O)OC(C)(C)C)c(C)c2c(=O)o1,,4.2 µM
CC(C)c1ccc(NC(=O)N2CCC[C@H]2C(=O)N2CC[C@H]3[C@H]2[C@H](C)C(=O)N3C(=O)c2nc3ccccc3s2)cc1,AD169,>24 µM
CC[C@@H](NC(=O)N1C(=O)C[C@@H]1CSc1ccccn1)c1ccccc1,,6.3 µM
O=C1C[C@@H](Cc2ccccc2)N1C(=O)NCc1ccncc1,,>75 µM
COC(=O)[C@H](C)Nc1nc2ccc(NC(=O)OC(C)(C)C)c(C)c2c(=O)o1,,0.74 µM
O=C1C[C@H](Cc2cccs2)N1C(=O)NCc1ccc(C(F)(F)F)cc1,,4.5 µM
CC(C)c1ccc(NC(=O)N2CCC[C@H]2C(=O)N2CC[C@H]3[C@H]2[C@H](C)C(=O)N3C(=O)c2ccc([N+](=O)[O-])cc2)cc1,AD169,>24 µM
Cc1ccc(CS(=O)c2nc3ccccc3[nH]2)c(N)c1C,,3.7 µM
CNC(=O)N1C(=O)C[C@H]1OC(C)=O,,<500 µM
O=C1C[C@H](Cc2nc3ccccc3[nH]2)N1C(=O)NCc1ccc([N+](=O)[O-])cc1,,>75 µM
CC[C@@H](NC(=O)N1C(=O)C[C@@H]1CSc1nc2ccccc2o1)c1ccccc1,,3.8 µM
COc1c(C)cc(N)c(CS(=O)c2nc3ccccc3[nH]2)c1C,,4.3 µM
COC(=O)[C@H](CC(C)C)Nc1nc2cccc(C)c2c(=O)o1,,1 µM
CCC(NC(=O)N1C(=O)[C@@H](C)[C@@H]1Cc1ccccc1)c1ccncc1,,9 µM
O=C1C[C@H](Cc2ccco2)N1C(=O)NCc1ccc([N+](=O)[O-])cc1,,3.1 µM
Cc1c(NC(=O)OC(C)(C)C)ccc2nc(NC3(C(=O)O)CC3)oc(=O)c12,,9.4 µM
CC[C@@H](NC(=O)N1C(=O)C[C@@H]1CSc1ccccc1)c1ccccc1,,2.6 µM
COCC(Cc1ccccc1)Nc1nc2cccc(C)c2c(=O)o1,,0.94 µM
COc1c(C)cc(N)c(CS(=O)c2nc3ccc(Cl)cc3[nH]2)c1C,,1.4 µM

Again, the opening 2 rows:

CC[C@@H](NC(=O)N1C(=O)C[C@@H]1CSc1ncccn1)c1ccccc1 ; value: 3.1 µM
O=C1C[C@H](Cc2nc3ccccc3s2)N1C(=O)NCc1ccc(C(F)(F)F)cc1 ; value: 2.7 µM